From patent US7968297B2, “Method for identification, isolation and production of antigens to a specific pathogen” (Intercell AG, priority 2001, dated 2011)

B1: ORF1333 (protein, listed as Staphylococcus epidermidis)
chain: MNTIVKHTVGFIASIVLTLLAVFVTLYTNMTFHAKVTIIFGFAFIQAALQLLMFMHLTEGKDGRLQSFKVIFAIIITLVTVIGTYWVMQGGHSSHL
B2: ORF2376 (protein, listed as Staphylococcus epidermidis)
chain: MNKKVEHIGNQYTSQENKKKQRQKMKMRVVRRRIALFGGILLAIILILLVLLVIQRHNNDQDAVERKEKETEFQKQQDEEIALKEKLNNLNDKDYIEKIARDDYYLSNKGEVIFRLPDDKKSSQSKTSNEKGN
B3: ORF2861 (protein, listed as Staphylococcus epidermidis)
chain: MKDNKMLFIIFMIGTFTVGMAEYVVTGLLTQIADDMKVSISSAGLLISVYAISVALIGPLMRIITLKVHAHRLLPILVAIFIISNLVGMLAPNFNVLLLSRLMSAAMHAPFFGVCMSVAATVAPPAKKTQAIALVQAGLTIAVMLGVPFGSFLGGFANWRVVFGFMIVLAIITMLGMIKFVPNVSLSAEANISKELTVFKNPHILIVIAIIVFGYSGVFTTYTFMEPMIRDFSPFKIVGLTVCLFMFGLGGVIGNLITGNVPEDKLTKNLYLTFLLLFVTIILFVTVIQNSILALIICFLFGFGTFGTTPLLNSKIILSGKEAPLLASTLAASIFNVANFLGAIIGSILLSIGLPYIQITLISGGIIVLGMLLNLVNQLYEKKHITFNEYS
B4: ORF1356 (protein, listed as Staphylococcus epidermidis)
chain: MSFLRKHTEIIFSYIIGIVSLFTGLIIFINLPLIKQFKGDKKVDTHVHNVWEFLNAFFAEIIKVMSKFIGGFPITSAIVIIVFGILVMLLGHTLFRTIKYDYDISIFFLVIGIMYFIITLLLMTQVYGFFAIVFIIPFTVHIGYIVYKDELNQDNRKNHYMWIIVTYGMSYLITQISLYGRIDANEIESIDILSVNTFFIIMWLLGQMAIWNFLFLRRSLPLTKEELGEEEPELSRTNKGNVSNQTKVHLKQLQNKTTEYARKTRRSVDLDKIRAKRDKFKQKINSIVDIQEDDIPNWMKKPKWVKPMYVQLFCGVIILFFAFLEFNNRNALFLTGEWELSQTQYVVEWVTLLLLLFIIIIYIATTLTYYLRDKYYYLQLFMGSILFFKFLTEFINIMVHGLLLSIFITPILLLMLIAMIVAYSLQLREK
B5: ORF1381 (protein, listed as Staphylococcus epidermidis)
chain: MLGEQYTQIKRPANRLTEKILGWFSWVFLLILTIVSMFIALVSFSNDTSIANLENTLNNNELVQQILANNDLSTTQFVIWLQNGVWAIIVYFIVCLLISFLALISMNIRILSGLLFLIAAIVTIPLVLLIVTLIIPILFFIIAMMMFARRDRIETVPSYYNEYDQPYYDERGFYEPESRNEHGYNDDVYEPMHTKKEDRNTRRQFNRNAQQQDSYNGITDNQPDEDTSSDQLYSDEYVDNEDKYSQFPKRAVESEYASQQTEDEPTVMSRQAKYNKKSKNTDFEDAQQEHMEGNQFDDVGVVEPQIDPKELKAQRKREKAEIRAKKKEKRKAYNKRMKERRKNQPSAVNQRRMNYEERRQMINNEQEDTDNNLNQQEDSKKEN
B6: ORF0101 (protein, listed as Staphylococcus epidermidis)
chain: MKFCPHCGNPIKKEQSFCNKCGKHLKTSTQRKSENQIEHMREQQSYISREERQHHDSTFYKEQKHTGWLIVLSIIFVLLIAALLYGAYYAYNHYISDEQSHQTTESQQSNESDQNRDQSTGPSIDVFSDDFDQGYMKSASTSGYRGVYNGMTREEVEDKFGTSNGSVESLKWSYETYGDLAVAYDDNEVVSVGVAPNHISEDQFLSMYNEPDDRNSSQLIYDSNKDNDFSVLANVKNGDVTVIENVNQI
B7: ORF2040 (protein, listed as Staphylococcus epidermidis)
chain: VSNNNFKDDFEKNRQSINPDEHQTELKEDDKTNENKKEADSQNSLSNNSNQQFPPRNAQRRKRRRETATNQSKQQDDKHQKNSDAKTTEGSLDDRYDEAQLQQQHDKSQQQNKTEKQSQDNRMKDGKDAAIVNGTSESPEHKSKSTQNRPGPKAQQQKRKSESTQSKPSTNKDKKAATGAGIAGAAGVAGAAETSKRHHNKKDKQDSKHSNHENDEKSVKNDDQKQSKKGKKAAVGAGAAAGVGAAGVAHHNNQNKHHNEEKNSNQNNQYNDQSEGKKKGGFMKILLPLIAAILILGAIAIFGGMALNNHNDSKSDDQKIANQSKKDSDKKDGAQSEDNKDKKSDSNKDKKSDSDKNADDDSDNSSSNPNATSTNNNDNVANNNSNYTNQNQQDNANQNSNNQQATQGQQSHTVYGQENLYRIAIQYYGEGTQANVDKIKRANGLSSNNIHNGQTLVIPQ
B8: ORF2764 (protein, listed as Staphylococcus epidermidis)
chain: MIVLRRLFQDRGAIFAIAIITIYVVLGVLAPLITFYEPNHIDTANKFAGISWSHWLGTDHLGRDVLTRIIYAIRPSLLYVFVALIISVVIGAILGFISGYFPGYIDAIIMRICDVMLAFPSYVVTLALITLFGMGVENIIIAFILTRWAWFCRVIRTSVMQYIEADHVKFAKVIGMNDLTIIRKHILPLTFTDIAIIASSSMCSMILQMSGFSFLGLGVKAPTAEWGMMLNEARKVMFTHPGMMMTTGVAIVIIVMAFNFLSDALQMAIDPRMSAKEKRLALKKGVKARDTA
B9: ORF0201 (protein, listed as Staphylococcus epidermidis)
chain: MTKKKRLSPSEWLLKQSKRHKRKNTLYTAIVLLVALVLLIFAVKSIQVEPVKSDTRDKDSIRITYLGNVTLNKHIRQTNLNDVFKGIQDTLDHSDFSTGSLIVNDFSRNQKDNINKNIENIMFLRKHNVKSVNLINESMDNIQATAMMRKIDSQAGYNFLTGNGSNPINSKTVQQDIKGKKIANVSFTDIESNYTNSLKNTTSISLDPAIFYPLIKKLKENNDYVVVNVDWGIPNERNVTTRQKEYAHALANAGADVIIGHNTVIQKVENYKRTPIFYSLGNTTSDNFLSKNQKGMIVQQDWKGSHNQFHITPIQSKDGKISKDNMNKMDHIRFKNNIKDKSIDLKSDQNGGYTFEY
B10: ORF1849 (protein, listed as Staphylococcus epidermidis)
chain: LKRNFINNLIILLIAIMLSLLLKMLHVILPFMFGPILAALLCVKVLKLKIRWPFWLSQIGLILLGVQIGSTFTQQVIKDISKNWLTIVFVTILLILLALIIAFFFKKIAQVNLETAILSVIPGALSQMLVMAEENKKANILVVSLTQTSRVIFVVILVPLISYFFQDNHHEMNHTTMEVPTLSQTLNIWQIIILFSMVGIIYIGMSKINFPTKQLLAPIIVLIIWNMTTHLTFSLDHWLLATAQLIYMIRIGLQIANLMSDLKGRIAIAIAFQNIMLIVTTFIMIIGIHLITNESINELFLGAAPGGMSQIVLVAMATGADVAMISSYHIFRIFFILFVIAPLIGYFINVKLNNK
B11: ORF2493 (protein, listed as Staphylococcus epidermidis)
chain: MKIRLTFIILAILSTIGLVLVLAKYPTGPHTINYNEPYTVLIAITTIVIMALPALILGIFNHLACRIISAILQISALMMWGFLVIISLIMGQIVIMLMASLTILALLVSSIVTLSVHPSTSDKIN
B12: ORF2200 (protein, listed as Staphylococcus epidermidis)
chain: MLDFINHLLSYQFLNRALITSILVGIVCGTMGSIIVLRGLSLMGDAMSHAVLPGVALSFLFNIPMFIGALVTGMLASLFIGFITSNSKTKPDAAIGISFTAFLASGVIIISLINSTTDLYHILFGNLLAITHQSFWTTIVITVLVILLIIIFYRPLMISTFDATFSRMSGLNTTLIHYFVMLLLALVTVASIQTVGIILVVALLITPASTAFLISKQLYAMMVIASIISVISSIIGLYFSYIYNIPSGATIVICTFMIYIVTLSITRIKNKQKRSALT
B13: CRF0004 (protein)
chain: TANNIISFIITLTNIYKTKLMGYFFNIIELRNKFIRRCWAILFIAIIHFISECFLPHIPTNCYVSRFDFLDSAKNMSYKTLNTICRNSFRIVHKLIV
B14: ORF0005 (protein, listed as Staphylococcus epidermidis)
chain: MKQFLNITQRKFIEWLIILSIFIVSIPNKWTLMISIALSLLLLKRGALGVVQLIILYMLRSQIYTPYDTQEMAHYIVSMKYILIYVIGVFFLFKYVKHWIRNEMILRFIKSTMILMLLYIIMSLVVSNDPIESILKLLNFFIPLILIVMYVSLIKKIKNLINWINQFITLVIAFTFLFIVIAPKSYLIDEESLRSVFKDAHSFAVILAMGLVLYMVTIIKQQDYDVFNLLLLNIGMIELYLSNSRHIFISVILCLMLLLPLSHIKKRIKHPIIGAMILMAIAIINQPYIYHLFIKLILKGKNSQEVFMPSDMNIKAIDYALTEHPFLGSGFGIPMIKASSEIQYFNVATSNIIFGMIIFTGIIGLTLCTIYMLHMVLLVTFPMSITILLFLITIFVNMDYIILFDSVGLGILCYIFWGIYLKEGMYQYNNGQW

Experiments:
[1] = tested on: purified IgGs from human sera; experiment: Ribosome display screening with purified human IgGs; type: binding; settings: for No. of selected clones per ORF and screen: screen D: ribosome display, LSA250/1 library with IC sera (1686); for Location of identified Immunogenic region: ORFs selected by ribosome display only (screen D); for No. of selected clones per ORF and screen: D: Ribosome display: D, LSE150 in pMAL4.31 with P2 (1235)
[2] = tested on: antibodies in human serum; experiment: Bacterial surface display library screening by MACS with biotinylated human serum; type: binding
[3] = screen C: LSA250/1 library in fhuA with IC sera 1 (571)
[4] = screen F: LSA50/6 library in lamB with patient sera P1 (1105)
[5] = screen A: LSA250/1 library in fhuA with patient sera 1 (655)
[6] = screen E: LSA50/6 library in lamB with IC sera 2 (454)

| Molecule | Location of identified Immunogenic region [1] | No. of selected clones per ORF and screen: D [1] | also measured |
| --- | --- | --- | --- |
| SrpA [compound 2378] |  |  | No. of selected clones per ORF and screen [1]: 7; No. of selected clones per ORF and screen [2, 3]: 1; No. of selected clones per ORF and screen [2, 4]: F: 4,; No. of selected clones per ORF and screen ([2]; screen H: LSA250/1 library in fhuA with patient sera 1 (IgA, 708)): H: 11 |
| Fnbp [compound 2186] |  |  | No. of selected clones per ORF and screen [1]: 5; No. of selected clones per ORF and screen [2, 5]: A: 4, C: 4,; No. of selected clones per ORF and screen [2, 3]: A: 4, C: 4,; No. of selected clones per ORF and screen [2, 6]: 2 |
| Clumping factor A [compound 0358] |  |  | No. of selected clones per ORF and screen [1]: 2; No. of selected clones per ORF and screen [2, 3]: 1; No. of selected clones per ORF and screen [2, 6]: E: 1 |
| SdrC [compound 0093] |  |  | No. of selected clones per ORF and screen [1]: 5; No. of selected clones per ORF and screen [2, 5]: 1; No. of selected clones per ORF and screen [2, 3]: 1; No. of selected clones per ORF and screen [2, 4]: 6; No. of selected clones per ORF and screen ([2]; screen G: LSA50/6 library in lamb with IC sera 1 (471)): G: 2 |
| B1 | aa 3-93 | D: 4 |  |
| B2 | aa 15-58 | D: 7 |  |
| B3 | aa 137-185 | D: 11 |  |
| B4 | aa 54-95 | D: 32 |  |
| B5 | aa 7-44 | D: 5 |  |
| B6 | aa 26-109 | D: 18 |  |
| B7 | aa 259-331 | D: 23 |  |
| B8 | aa 6-41 | D: 4 |  |
| B9 | aa 11-53 | D: 9 |  |
| B10 | aa 254-301 | D: 5 |  |
| B11 | aa 69-113 | D: 6 |  |
| B12 | aa 162-225 | D: 19 |  |
| B13 | aa 31-72 | D: 4 |  |
| B14 | aa 105-128 | D: 3 |  |
